Compound potency records, mixed from different reports. Data source: NIAID ChemDB in PubChem.

Shared fields: enzyme or target tests; agent: HIV-1; target: Reverse transcriptase; method: nucleotide incorporation / radiometric; measure: fold resistance

Neighbouring rows are from separate reports.

| structure | strain | mutations | value |
|---|---|---|---|
| CCN1c2ncc(CCOc3ccc(C(=O)N=c4ccccn4O)cc3C)cc2C(=O)Nc2c(C)ccnc21 | IIIB | RT-K103N Y181C | >1 |
| CCN1c2ncc(CCOc3cccc4c3CS(=O)(=O)N4)cc2-c2nccn2-c2c(C)ccnc21 | - | RT-K103N Y181C | >1 |
| O=C(CSc1nnc(Br)n1-c1ccc(C2CC2)cc1OC(F)(F)F)Nc1ccc(S(=O)(=O)O)cc1Cl | - | RT-Y181C | >1 |
| CCN1c2ncc(CCOc3cccc4c3CCNC4=O)cc2C(=O)Nc2c(C)ccnc21 | IIIB | RT-K103N Y181C | >2 |
| NC(=O)c1[nH]c2ccc(Cl)cc2c1S(=O)(=O)c1ccccc1 | - | RT-K103N | 5 |
| O=C(O)CCNC(=O)c1ccc(NC(=O)CSc2nnc(Br)n2-c2ccc(C3CC3)c3ccccc23)c(Cl)c1 | - | RT-Y188L | >2 |
| O=P(O)(O)OP(=O)(O)O | - | RT-Y115F | 1.57 |
| CCCc1cc(=O)oc2c3c(c4c(c12)OC(C)(C)C=C4)O[C@H](C)C[C@@H]3O | - | RT-G138A | 2.1 |
| CC[C@H](C)[C@H](NC(=O)c1ccc(NC(=O)CSc2nnc(Br)n2-c2ccc(C3CC3)c3ccccc23)c(Cl)c1)C(=O)O | - | RT-Y188L | >1 |
| Cc1cc(C)cc(S(=O)(=O)c2c(C(N)=O)[nH]c3ccc(Cl)cc23)c1 | - | RT-V106A | 30 |
| CCN1c2ncc(CCOc3cccc4c3CNC(=O)O4)cc2C(=O)N(C)c2cccnc21 | IIIB | RT-K103N Y181C | 1 |
| CCN1c2ncc(CCOc3ccc(-c4ccc(CC(=O)O)cc4)cc3C)cc2C(=O)Nc2c(C)ccnc21 | IIIB | RT-K103N Y181C | 1 |
| COc1ccc2c(C3CC3)ccc(-n3c(Br)nnc3SCC(=O)Nc3ccc(S(N)(=O)=O)cc3Cl)c2c1 | - | RT-Y188L | >1 |
| CC[C@H](C)[C@H](NC(=O)c1ccc(NC(=O)CSc2nnc(Br)n2-c2ccc(C3CC3)c3ccccc23)c(Cl)c1)C(=O)O | - | RT-Y188L | >1 |
| Cc1cc(S(=O)(=O)O)ccc1NC(=O)CSc1nnc(C(F)F)n1-c1ccc(C)c2c1CCCC2 | - | RT-Y181C | >2 |
| CCN1c2ncc(CCOc3cccc4c3CNC4=O)cc2C(=O)Nc2c(C)ccnc21 | IIIB | RT-K103N Y181C | >2 |
| Cc1cc(-c2ccc(CC(=O)O)cc2)ccc1OCCc1cnc2c(c1)C(=O)N(C)c1cccnc1N2 | IIIB | RT-K103N Y181C | >2 |
| CCN1c2ncc(CCOc3cccc4c3CNC(=O)N4)cc2-c2nc(C)cn2-c2cccnc21 | - | RT-K103N Y181C | >2 |
| COC(=O)[C@@H](NC(=O)c1ccc(NC(=O)CSc2nnc(Br)n2-c2ccc(C3CC3)c3ccccc23)c(Cl)c1)C(C)C | - | RT-Y188L | >1 |
| CCN1c2ncc(CCOc3ccc4cc(CC(=O)O)ccc4c3C)cc2C(=O)N(C)c2cccnc21 | - | RT-V106A | 1–10 |
| CCc1ccc(-n2c(Br)nnc2SCC(=O)Nc2ccc(C(=O)NCC(=O)OC)cc2Cl)c2ccccc12 | - | RT-Y188L | >1 |
| CCN1c2ncc(CCOc3ccc(-c4cccc(CC(=O)O)c4)cc3C)cc2C(=O)N(C)c2cccnc21 | IIIB | RT-K103N Y181C | 1 |
| CCN1c2ncc(CCOc3cccc4c3CNC4=O)cc2-c2ncc(C)n2-c2cccnc21 | - | RT-K103N Y181C | >2 |
| NS(=O)(=O)c1ccc(NC(=O)CSc2nnc(Br)n2-c2ccc(C3CC3)cc2Cl)c(Cl)c1 | - | RT-Y188L | >2 |
| CCN1c2ncc(CCOc3ccc(-c4ccc(O)cc4)cc3C)cc2C(=O)N(C)c2cccnc21 | IIIB | RT-K103N Y181C | 1 |
| Cc1cc(S(N)(=O)=O)ccc1NC(=O)CSc1nnc(Br)n1-c1ccc(F)c2ccccc12 | - | RT-Y188L | >2 |
| CCN1c2ncc(CCOc3cccc4c3CNC(=O)N4)cc2C(=O)N(C)c2cccnc21 | IIIB | RT-K103N Y181C | >2 |
| C=CCO/N=C/c1cc(NC(=S)c2ccoc2C)ccc1Cl | - | RT-Y181C | >8.33 |
| CCN1c2ncc(CCOc3cccc4c3CCNC4=O)cc2-c2ncc(C)n2-c2cccnc21 | - | RT-K103N Y181C | >2 |
| Cc1cc(C2CC2)c2ccccc2c1-n1c(Br)nnc1SCC(=O)Nc1ccc(S(N)(=O)=O)cc1Cl | - | RT-Y188L | >1 |
| Cc1cc(S(N)(=O)=O)ccc1NC(=O)COc1ccccc1C(=O)c1cc(Cl)cc(C#N)c1 | NNRTI-resistant | RT-K103N | 0.6 |
| O=C(O)CNC(=O)c1ccc(NC(=O)CSc2nnc(Br)n2-c2ccc(C3CC3)c3ccccc23)c(Cl)c1 | - | RT-Y188L | >1 |
| CCN1c2ncc(CCOc3ccc(/C=C(\C)C(=O)O)c4ccccc34)cc2C(=O)Nc2c(C)ccnc21 | - | RT-Y188L | >10 |
| N#Cc1cccc2c(-n3c(SCC(=O)Nc4ccc(S(N)(=O)=O)cc4Cl)nnc3C(F)F)cccc12 | - | RT-Y188L | >1 |
| CCN1c2ncc(CCOc3ccc(C(=O)O)c4c3CCN(S(=O)(=O)N(C)C)C4)cc2C(=O)N(C)c2cccnc21 | - | RT-Y188L | 1–10 |
| CCc1ccc(-n2c(Br)nnc2SCC(=O)Nc2ccc(C(=O)NCC(=O)O)cc2Cl)c2ccccc12 | - | RT-Y188L | >2 |
| Cc1occc1C(=S)Nc1ccc(Cl)c(/C=N/OC(C)(C)C)c1 | - | RT-Y181C | 2.85 |
| Cc1cc(C)c(-n2c(SCC(=O)Nc3ccc(S(N)(=O)=O)cc3Cl)nnc2C(F)(F)F)c2c1CCCC2 | - | RT-Y188L | >2 |
| CCN1c2ncc(CCOc3cccc4c3CCS(=O)(=O)N4)cc2-c2ncc(C)n2-c2cccnc21 | - | RT-K103N Y181C | >1 |
| CCN1c2ncc(CCOc3ccc(CC(C)C(=O)O)c4ccccc34)cc2C(=O)N(C)c2ccc(C)nc21 | - | RT-V106A | >10 |
| CCc1ccc(-n2c(Br)nnc2SCC(=O)Nc2ccc(C(=O)N[C@H](C(=O)OC)C(C)C)cc2Cl)c2ccccc12 | - | RT-Y181C | <1 |
| Cc1occc1C(=S)Nc1ccc(Cl)c(C(=O)OCC2CC2)c1 | - | RT-Y188H | >8.33 |
| NS(=O)(=O)c1ccc(NC(=O)CSc2nnc(Cl)n2-c2ccc(C3CC3)c3ccccc23)c(Cl)c1 | - | RT-Y188L | >2 |
| CCN1c2ncc(CCOc3ccc(-c4ccc(C(=O)O)c(Cl)c4)cc3C)cc2C(=O)N(C)c2cccnc21 | IIIB | RT-K103N Y181C | >1 |
| O=C(CSc1nnc(Br)n1-c1c(Cl)cc(C2CCC2)c2ccccc12)Nc1ccc(C(=O)O)cc1Cl | - | RT-Y188L | >1 |
| CCN1c2nc(C(F)(F)F)ccc2NC(=O)c2cc(CCOc3cc[n+]([O-])c4ccccc34)cnc21 | - | RT-Y188L | 16.5 |
| CCc1ccc(-n2c(SCC(=O)Nc3ccc(C(=O)O)cc3Cl)nnc2C(F)F)c2ccccc12 | - | RT-Y188L | >2 |
| CCN1c2ncc(CCOc3ccc4cc(C(=O)NN)ccc4c3)cc2C(=O)N(C)c2cccnc21 | - | RT-K103N Y181C | 1–10 |
| Cc1ccc2c(C)ccc(-n3c(Br)nnc3SCC(=O)Nc3ccc(S(N)(=O)=O)cc3Br)c2c1 | - | RT-Y188L | >1 |
| CCN1c2ncc(CCOc3ccc(C(=O)Nc4nc(CC(=O)O)cs4)cc3C)cc2C(=O)N(C)c2cccnc21 | IIIB | RT-K103N Y181C | 1 |
| Cc1ccc(-n2c(SCC(=O)Nc3ccc(S(=O)(=O)NCCN4CCOCC4)cc3Cl)nnc2C(F)F)c2c1CCCC2 | - | RT-Y188L | >2 |
| CCc1ccc(-n2c(Br)nnc2SCC(=O)Nc2ccc(C(=O)N[C@H](C(=O)OC)C(C)C)cc2Cl)c2ccccc12 | - | RT-Y181C | <1 |
| Cc1cc(C2CC2)cc(Cl)c1-n1c(Br)nnc1SCC(=O)Nc1ccc(C(=O)O)cc1Cl | - | RT-Y188L | >2 |
| CCN1c2ncc(CCOc3ccc(C(=O)Nc4ccc(C(=O)O)cn4)cc3C)cc2C(=O)N(C)c2cccnc21 | IIIB | RT-K103N Y181C | 1 |

The first 7 rows once more:

{"structure": "CCN1c2ncc(CCOc3ccc(C(=O)N=c4ccccn4O)cc3C)cc2C(=O)Nc2c(C)ccnc21", "strain": "IIIB", "mutations": "RT-K103N Y181C", "value": ">1"}
{"structure": "CCN1c2ncc(CCOc3cccc4c3CS(=O)(=O)N4)cc2-c2nccn2-c2c(C)ccnc21", "mutations": "RT-K103N Y181C", "value": ">1"}
{"structure": "O=C(CSc1nnc(Br)n1-c1ccc(C2CC2)cc1OC(F)(F)F)Nc1ccc(S(=O)(=O)O)cc1Cl", "mutations": "RT-Y181C", "value": ">1"}
{"structure": "CCN1c2ncc(CCOc3cccc4c3CCNC4=O)cc2C(=O)Nc2c(C)ccnc21", "strain": "IIIB", "mutations": "RT-K103N Y181C", "value": ">2"}
{"structure": "NC(=O)c1[nH]c2ccc(Cl)cc2c1S(=O)(=O)c1ccccc1", "mutations": "RT-K103N", "value": "5"}
{"structure": "O=C(O)CCNC(=O)c1ccc(NC(=O)CSc2nnc(Br)n2-c2ccc(C3CC3)c3ccccc23)c(Cl)c1", "mutations": "RT-Y188L", "value": ">2"}
{"structure": "O=P(O)(O)OP(=O)(O)O", "mutations": "RT-Y115F", "value": "1.57"}

a–b is a range or a potency band. Blank or dashed fields: not listed here. Fold resistance has wild type as its base.